Results of unrelated studies side by side (data: NIAID ChemDB).

Common to all: tests on isolated targets; agent: HIV-1; target: Reverse transcriptase

Blank or dashed fields: not listed here. ICn: concentration for n% inhibition. Rows are shuffled and stem from different studies. Two numbers with a dash give a range or band.

compound | strain or isolate | read by | read-out | mutations | result
CCc1ccc(-n2c(Br)nnc2SCC(=O)Nc2ccc(C(=O)O)cc2Br)c2ccccc12 | - | nucleotide incorporation / radiometric | IC50 | RT-Y181C | <0.05 µM
CCN1c2ncc(CCc3ccc(N(C)S(C)(=O)=O)cc3)cc2C(=O)N(C)c2ccc(Cl)nc21 | - | nucleotide incorporation / radiometric | IC50 | RT-Y181C | <1 µM
CCc1ccc(-n2c(Br)nnc2SCC(=O)Nc2ccc(C(=O)NCCC#N)cc2Cl)c2ccccc12 | - | nucleotide incorporation / radiometric | IC50 | - | <0.05 µM
CC(C)(C)c1ccc(-n2nnnc2SCC(=O)Nc2ccc(C(=O)NC3CC3)cc2Cl)c(Cl)c1 | - | PicoGreen / fluorescence | IC50 | RT-K103 Y181C | <1 µM
O=c1cc(Cc2ccccc2)nc(SCCCCO)[nH]1 | - | - | Ki | RT-V179D | 139 µM
O=C(CSc1nnc(Br)n1-c1ccc(C2CCC2)c2ccccc12)Nc1ccc(C(=O)O)cc1Cl | - | nucleotide incorporation / radiometric | IC50 | RT-Y181C | <0.05 µM
CCN1c2ncc(CCOc3cccc4c3ccc[n+]4[O-])cc2C(=O)Nc2c(C)cc(Cl)nc21 | - | nucleotide incorporation / radiometric | IC50 | RT-Y188L | 3.938 µM
CC(C)(C#Cc1ccc(NC(=O)CSc2nnnn2-c2cc(C(F)(F)F)cc(C3CC3)c2Cl)c(Cl)c1F)NC(=O)CN1CCNCC1 | WT | PicoGreen / fluorescence | IC50 | - | <1 µM
CCOC(=O)CCNC(=O)c1ccc(NC(=O)CSc2nnc(Br)n2-c2ccc(CC)c3ccccc23)c(Cl)c1 | - | nucleotide incorporation / radiometric | IC50 | RT-Y181C | <0.05 µM
O=C(CSc1nnnn1-c1ccc(C2CC2)cc1Cl)Nc1ccc(-c2ccc(OCCN3CCCCC3)c(Cl)c2)cc1Cl | - | PicoGreen / fluorescence | IC50 | RT-K103 Y181C | <1 µM
CCN1c2ncc(CCc3ccc(C(=O)OC)cc3)cc2C(=O)N(C)c2cccnc21 | WT | nucleotide incorporation / radiometric | IC50 | - | <1 µM
COc1ccc2c(c1)CCN(c1nn3c(C4CC4)nnc3c3ccccc13)C2 | KER2008 | RT activity / fluorescence | IC50 | - | 1.13 µM
CCc1ccc(-n2c(Br)nnc2SCC(=O)Nc2ccc(C(=O)NCCOC)cc2Cl)c2ccccc12 | - | nucleotide incorporation / radiometric | IC50 | RT-Y188L | <0.05 µM
CC(C)(C#Cc1ccc(NC(=O)CSc2nnnn2-c2ccc(C3CC3)cc2Cl)c(Cl)c1)NC(=O)CC(=O)O | - | PicoGreen / fluorescence | IC50 | RT-K103 Y181C | <1 µM
COc1ccc2c(C3CC3)ccc(-n3c(Br)nnc3SCC(=O)Nc3ccc(C(=O)O)cc3Cl)c2c1 | - | nucleotide incorporation / radiometric | IC50 | RT-Y181C | <1.05 µM
CC(C)(C#Cc1ccc(NC(=O)CSc2nnnn2-c2ccc(C3CC3)cc2Cl)c(Cl)c1)NCc1cc[n+]([O-])cc1 | WT | PicoGreen / fluorescence | IC50 | - | <1 µM
NS(=O)(=O)c1ccc(NC(=O)CSc2nnc(Br)n2-c2ccc(C3CC3)c3ccccc23)c(Cl)c1 | - | nucleotide incorporation / radiometric | IC50 | RT-Y188L | 0.05–0.1 µM
CCOC(=O)CCNC(=O)c1ccc(NC(=O)CSc2nnc(Br)n2-c2ccc(C3CC3)c3ccccc23)c(Cl)c1 | - | nucleotide incorporation / radiometric | IC50 | - | <0.05 µM
CC(C)(C)c1ccc(-n2nnnc2SCC(=O)Nc2ccc(NC(=O)c3cccc(C(=O)O)c3)cc2Cl)c(Cl)c1 | WT | PicoGreen / fluorescence | IC50 | - | <1 µM
CCc1ccc(-n2c(Br)nnc2SCC(=O)Nc2ccc(C(=O)NCC(=O)O)cc2Cl)c2ccccc12 | - | nucleotide incorporation / radiometric | IC50 | - | <0.05 µM
CCN1c2ncc(CCc3cccc(I)c3)cc2C(=O)N(C)c2ccc(Cl)nc21 | WT | nucleotide incorporation / radiometric | IC50 | - | <1 µM
CC(C)(O)C#Cc1ccc(NC(=O)CSc2nnnn2-c2cc(F)cc(C(F)(F)F)c2Cl)c(Cl)c1 | - | PicoGreen / fluorescence | IC50 | RT-K103 Y181C | <1 µM
COc1ccc2c(c1)CCN(c1nn3c(C)nnc3c3ccccc13)C2 | 98US_MSC5016 | RT activity / fluorescence | IC50 | - | 4.26 µM
CC(C)(C#Cc1ccc(NC(=O)CSc2nnnn2-c2cc(C(C)(C)C)cc(Br)c2Cl)c(Cl)c1)NC(=O)CN1CCNCC1 | - | PicoGreen / fluorescence | IC50 | RT-K103 Y181C | <1 µM
CCN1c2ncccc2NC(=O)c2cc(CCOc3ccc(-c4ccc(CC(=O)O)cc4)cc3C)cnc21 | IIIB | nucleotide incorporation / radiometric | IC50 | - | <0.05 µM
Cc1ccc(-n2nnnc2SCC(=O)Nc2ccc(-c3ccc(C(=O)O)cc3)cc2Cl)c(Cl)c1 | WT | PicoGreen / fluorescence | IC50 | - | <1 µM
O=C(CSc1nnc(C(F)F)n1-c1ccc(C2CC2)c2ccccc12)Nc1ccc(C(=O)O)cc1Cl | - | nucleotide incorporation / radiometric | IC50 | RT-Y188L | >0.1 µM
CC(C)(C)c1ccc(-n2nnnc2SCC(=O)Nc2ccc(OCC(=O)NN3CCOCC3)cc2Cl)c(Cl)c1 | WT | PicoGreen / fluorescence | IC50 | - | <1 µM
Cc1c(Cc2ccccc2)nc(SCCCCO)[nH]c1=O | - | - | Ki | RT-V106A | 96 µM
CC(C)(C#Cc1ccc(NC(=O)CSc2nnnn2-c2ccc(C3CC3)cc2Cl)c(Cl)c1)C(=O)NC(C)(C)C(=O)O | WT | PicoGreen / fluorescence | IC50 | - | <1 µM
CCc1cc(C2CC2)ccc1-n1c(Br)nnc1SCC(=O)Nc1ccc(C(=O)O)cc1Cl | - | nucleotide incorporation / radiometric | IC50 | - | <0.05 µM
COc1ccc2cccc(-n3c(Br)nnc3SCC(=O)Nc3ccc(C(=O)O)cc3Cl)c2c1 | - | nucleotide incorporation / radiometric | IC50 | RT-Y188L | >0.1 µM
Cc1ccc(-n2nnnc2SCC(=O)Nc2ccc(C#CC(C)(C)O)cc2Cl)c(Cl)c1C(F)(F)F | - | PicoGreen / fluorescence | IC50 | RT-K103 Y181C | <1 µM
CCN1c2ncc(CCOc3ccc(-c4ccc(CC(=O)O)cc4OC)cc3C)cc2C(=O)N(C)c2cccnc21 | IIIB | nucleotide incorporation / radiometric | IC50 | RT-K103N Y181C | <0.05 µM
CCCc1ccc(-n2c(Br)nnc2SCC(=O)Nc2ccc(S(N)(=O)=O)cc2C)c2ccccc12 | - | nucleotide incorporation / radiometric | IC50 | RT-Y188L | >0.1 µM
CCN1c2ncc(CCOc3ccc(N(CC(=O)O)C(C)=O)cc3C)cc2C(=O)N(C)c2cccnc21 | IIIB | nucleotide incorporation / radiometric | IC50 | RT-K103N Y181C | >0.1 µM
NS(=O)(=O)c1ccc(NC(=O)CSc2nnc(Br)n2-c2ccc(C3CC3)c3c2CCCC3)c(Cl)c1 | - | nucleotide incorporation / radiometric | IC50 | RT-Y181C | <0.05 µM
COC(=O)NCCCCNc1nc(Cc2ccccc2)c(C)c(=O)[nH]1 | - | - | Ki | RT-Y181I | >1000 µM
CCN1c2ncc(CCc3cccc4[nH]ccc34)cc2C(=O)N(C)c2ccc(Cl)nc21 | - | nucleotide incorporation / radiometric | IC50 | RT-Y181C | <1 µM
Cc1c(NC(=O)CSc2nnnn2-c2ccc(C3CC3)cc2Cl)ccc(C#CC(C)(C)NC(=O)c2cc[n+]([O-])cc2)c1F | - | PicoGreen / fluorescence | IC50 | RT-K103 Y181C | <1 µM
Cc1ccc(-n2c(SCC(=O)Nc3ccc(S(=O)(=O)NCCN4CCOCC4)cc3Cl)nnc2C(F)F)c2c1CCCC2 | - | nucleotide incorporation / radiometric | IC50 | RT-Y188L | >0.1 µM
CC(C)(N)C#Cc1ccc(NC(=O)CSc2nnnn2-c2cc(C3CC3)cc(C(F)(F)F)c2Cl)c(Cl)c1F | WT | PicoGreen / fluorescence | IC50 | - | <1 µM
CCN1c2ncc(CCOc3ccc(-c4cc(C(=O)O)c[n+]([O-])c4)cc3C)cc2C(=O)N(C)c2cccnc21 | IIIB | nucleotide incorporation / radiometric | IC50 | RT-K103N Y181C | <0.05 µM
CC(C)=CCN1Cc2cccc3[nH]c(=S)n(c23)C[C@@H]1C | - | nucleotide incorporation | IC50 | RT-Y181I | 60.3 µM
CCCCCCNC(=O)c1ccc(NC(=O)CSc2nnc(Br)n2-c2ccc(CC)c3ccccc23)c(Cl)c1 | - | nucleotide incorporation / radiometric | IC50 | - | <0.05 µM
CCN1c2ncc(CCOc3ccc(NC(C)=O)cc3C)cc2C(=O)N(C)c2cccnc21 | IIIB | nucleotide incorporation / radiometric | IC50 | RT-K103N Y181C | 0.05–0.1 µM
CC(C)(C#Cc1ccc(NC(=O)CSc2nnnn2-c2cc(Cl)ccc2Cl)c(Cl)c1)C(=O)O | WT | PicoGreen / fluorescence | IC50 | - | <1 µM
CCN1c2ncc(CCOc3ccc(Nc4ccc(C(=O)O)cc4)cc3C)cc2C(=O)N(C)c2cccnc21 | IIIB | nucleotide incorporation / radiometric | IC50 | RT-K103N Y181C | <0.05 µM
CNC(=O)NC(C)(C)C#Cc1ccc(NC(=O)CSc2nnnn2-c2ccc(C3CC3)cc2Cl)c(Cl)c1 | WT | PicoGreen / fluorescence | IC50 | - | <1 µM
COc1ccc2c(C)ccc(-n3c(Br)nnc3SCC(=O)Nc3ccc(C(=O)O)cc3Cl)c2c1 | - | nucleotide incorporation / radiometric | IC50 | RT-Y181C | <0.05 µM
CC[C@H](C)[C@H](NC(=O)c1ccc(NC(=O)CSc2nnc(Br)n2-c2ccc(C3CC3)c3ccccc23)c(Cl)c1)C(=O)O | - | nucleotide incorporation / radiometric | IC50 | RT-Y188L | 0.05–0.1 µM
CCN1c2ncc(CCOc3ccc(-c4cc(CC(=O)O)ccc4C)cc3C)cc2C(=O)N(C)c2cccnc21 | IIIB | nucleotide incorporation / radiometric | IC50 | RT-K103N Y181C | 0.05–0.1 µM
Cc1ccc(-n2c(SCC(=O)Nc3ccc(S(=O)(=O)NC(C)C(=O)O)cc3Cl)nnc2C(F)F)c2c1CCCC2 | - | nucleotide incorporation / radiometric | IC50 | - | <0.05 µM
Cn1cc(NC(=O)c2ccc(NC(=O)CSc3nnnn3-c3ccc(C(C)(C)C)cc3Cl)c(Cl)c2)cc1C(=O)O | - | PicoGreen / fluorescence | IC50 | RT-K103 Y181C | <1 µM
CC(C)OC(=O)CNC(=O)c1ccc(NC(=O)CSc2nnc(Br)n2-c2ccc(C3CC3)c3ccccc23)c(Cl)c1 | - | nucleotide incorporation / radiometric | IC50 | RT-Y188L | <0.05 µM
CCC(N)(C#Cc1ccc(NC(=O)CSc2nnnn2-c2ccc(C3CC3)cc2Cl)c(Cl)c1)CC | WT | PicoGreen / fluorescence | IC50 | - | <1 µM
Cc1cc(C2CC2)cc(C)c1-n1c(Br)nnc1SCC(=O)Nc1ccc(C(=O)O)cc1Cl | - | nucleotide incorporation / radiometric | IC50 | RT-Y188L | >0.1 µM
CC(C)(C)c1ccc(-n2nnnc2SCC(=O)Nc2ccc(C(=O)Nc3ccncc3)cc2Cl)c(Cl)c1 | - | PicoGreen / fluorescence | IC50 | RT-K103 Y181C | <1 µM
Cc1cc(S(N)(=O)=O)ccc1NC(=O)CSc1nnc(C(F)F)n1-c1ccc(C)c2c1CCCC2 | - | nucleotide incorporation / radiometric | IC50 | RT-Y181C | <0.05 µM
FC(F)(F)Cc1nnc2c3ccccc3c(N3CCc4ccccc4C3)nn12 | 98US_MSC5016 | RT activity / fluorescence | IC90 | - | 2.75 µM
NS(=O)(=O)c1ccc(NC(=O)CSc2nnc(Br)n2-c2c(Cl)cc(C3CCC3)c3ccccc23)c(Cl)c1 | - | nucleotide incorporation / radiometric | IC50 | - | <0.05 µM
Cc1ccc(-n2c(SCC(=O)Nc3ccc(C(=O)O)cc3Cl)nnc2C(F)F)c2c1CCCC2 | - | nucleotide incorporation / radiometric | IC50 | - | <0.05 µM
O=C(CSc1nnc(Br)n1-c1ccc(C2CC2)cc1OC(F)(F)F)Nc1ccc(S(=O)(=O)O)cc1Cl | - | nucleotide incorporation / radiometric | IC50 | RT-Y181C | 0.05–0.1 µM
CCN1c2ncc(CCOc3cccc(-c4cccc(C(=O)O)c4)c3)cc2C(=O)N(C)c2cccnc21 | IIIB | nucleotide incorporation / radiometric | IC50 | - | >0.1 µM
CC(C)(C)c1ccc(-n2nnnc2SCC(=O)Nc2ccc(-c3ccc(OCCN4CCOCC4)cc3)cc2Cl)c(Cl)c1 | WT | PicoGreen / fluorescence | IC50 | - | <1 µM
CCc1ccc(-n2c(SCC(=O)Nc3ccc(C(=O)O)cc3Cl)nnc2C(F)F)c2ccccc12 | - | nucleotide incorporation / radiometric | IC50 | RT-Y181C | <0.05 µM

For reference, 9 entries again:

compound	strain or isolate	read by	read-out	mutations	result
Cc1ccc(-n2nnnc2SCC(=O)Nc2ccc(-c3ccc(C(=O)O)cc3)cc2Cl)c(Cl)c1	WT	PicoGreen / fluorescence	IC50	-	<1 µM
CCN1c2ncc(CCOc3ccc(NC(C)=O)cc3C)cc2C(=O)N(C)c2cccnc21	IIIB	nucleotide incorporation / radiometric	IC50	RT-K103N Y181C	0.05–0.1 µM
CC(C)(C)c1ccc(-n2nnnc2SCC(=O)Nc2ccc(OCC(=O)NN3CCOCC3)cc2Cl)c(Cl)c1	WT	PicoGreen / fluorescence	IC50	-	<1 µM
CCN1c2ncc(CCOc3ccc(-c4ccc(CC(=O)O)cc4OC)cc3C)cc2C(=O)N(C)c2cccnc21	IIIB	nucleotide incorporation / radiometric	IC50	RT-K103N Y181C	<0.05 µM
Cc1c(Cc2ccccc2)nc(SCCCCO)[nH]c1=O	-	-	Ki	RT-V106A	96 µM
CC(C)=CCN1Cc2cccc3[nH]c(=S)n(c23)C[C@@H]1C	-	nucleotide incorporation	IC50	RT-Y181I	60.3 µM
CCN1c2ncc(CCc3cccc4[nH]ccc34)cc2C(=O)N(C)c2ccc(Cl)nc21	-	nucleotide incorporation / radiometric	IC50	RT-Y181C	<1 µM
CCc1ccc(-n2c(SCC(=O)Nc3ccc(C(=O)O)cc3Cl)nnc2C(F)F)c2ccccc12	-	nucleotide incorporation / radiometric	IC50	RT-Y181C	<0.05 µM
CCc1ccc(-n2c(Br)nnc2SCC(=O)Nc2ccc(C(=O)NCCOC)cc2Cl)c2ccccc12	-	nucleotide incorporation / radiometric	IC50	RT-Y188L	<0.05 µM